Data as given in PubChem BioAssay AID624099 (ICCB-Longwood, 2012).
In all, the deposit lists about 21,000 reagents; this is an unselected part. In the full data, 497 (2.4%) are marked active. 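Higher z means weaker E2 silencing; only reporter increases were scored, and knock-downs that hurt cell survival may mask genuine repressor factors.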 A number with no mark means an inactive call. The numbers tell different reagents against one gene apart.

- Assay: 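Host factors E2 relies on to silence an HPV18 LCR reporter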 (primary screen)
- Cells: human C33A cervical carcinoma cells (HPV-negative) stably expressing BPV1 E2 and an HPV18 LCR luciferase reporter
- Knock-down reagent: siRNA pool against human genes, 40 nM
- Time to read-out: 72 h
- Read-out: 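HPV18 LCR reporter light per well, converted to plate-wise z-scores that exclude control wells, and averaged over triplicate plates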
- Direction: mean z-score and z-score: higher = stronger reporter signal, weaker E2 silencing
- Active means: 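Hit if mean z-score reaches 2 and two or more of three replicate z-scores also reach 2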

For LOC400741 (retired record), what does the deposit list?
mean z-score: 0.85; z-score, replicate A: 0.79; z-score, replicate B: 0.92; z-score, replicate C: 0.84

For ALOX15B, what does the deposit list?
mean z-score: -0.53; z-score, replicate A: -0.79; z-score, replicate B: -0.32; z-score, replicate C: -0.48

For SSTR5, how do the results read?
mean z-score: -1.22; z-score, replicate A: -0.89; z-score, replicate B: -1.33; z-score, replicate C: -1.43

Which result is listed for COL11A1?
mean z-score: -0.04; z-score, replicate A: 0.1; z-score, replicate B: -0.06; z-score, replicate C: -0.15

How did the screen score GFOD3P?
mean z-score: -1.08; z-score, replicate A: -1.18; z-score, replicate B: -1.1; z-score, replicate C: -0.97

Laid out differently: entries from further up.
Gene,reagent,mean z-score,"z-score, replicate A","z-score, replicate B","z-score, replicate C"
ALOX15B,1,-0.53,-0.79,-0.32,-0.48
SSTR5,1,-1.22,-0.89,-1.33,-1.43

Next results follow:
Which result is listed for SVIL?
mean z-score: -0.63; z-score, replicate A: -0.79; z-score, replicate B: -0.44; z-score, replicate C: -0.65

With IGFL4 #1, what was measured?
mean z-score: -0.25; z-score, replicate A: -0.26; z-score, replicate B: -0.15; z-score, replicate C: -0.33

What is on record for IGFL4 #2?
mean z-score: 0.31; z-score, replicate A: 1.16; z-score, replicate B: -0.16; z-score, replicate C: -0.06

What did the screen give for KRT6C?
mean z-score: 1.55; z-score, replicate A: 1.61; z-score, replicate B: 1.25; z-score, replicate C: 1.79

With SLC28A2, how do the results read?
mean z-score: 1.93; z-score, replicate A: 1.92; z-score, replicate B: 1.8; z-score, replicate C: 2.06

What is on record for ETV1?
mean z-score: 0.67; z-score, replicate A: 0.96; z-score, replicate B: 0.47; z-score, replicate C: 0.59

Which result is listed for LOC402598 (retired record)?
mean z-score: -0.43; z-score, replicate A: -0.06; z-score, replicate B: -0.48; z-score, replicate C: -0.75
